Results of unrelated studies side by side (data: NIAID ChemDB).

Shared fields: tests in culture; species: Candida albicans

ECn: concentration that inhibits the pathogen or its effect by n%.

C1CCC(C[C@H]2CN3C(=NC[C@H]3CC3CCCCC3)N2CCC23CC4CC(CC(C4)C2)C3)CC1 ; strain: ATCC 10231 ; measure: MIC ; value: 5–8 µg/mL
N#CC(C#N)C(CC(=O)c1ccccc1)c1ccc(Cl)cc1Cl ; strain: ATCC 10231 ; measure: MIC ; value: >50 µg/mL
C1CCC([C@H]2CN3C(=NC[C@H]3C3CCCCC3)N2CCC23CC4CC(CC(C4)C2)C3)CC1 ; strain: ATCC 10231 ; measure: EC50 ; value: 9 µg/mL
Cc1c(NCCN)c(F)cn2c(=O)c(C(=O)O)cc(C3CC3)c12.Cl ; strain: CCH442 ; measure: MIC ; value: 25 µg/mL
C[C@@H]1[C@H](O)[C@@H](C)/C=C/C=C/CC/C=C/C=C/C=C/C=C/C(O[C@H]2O[C@H](C)[C@@H](O)[C@H](N)[C@@H]2O)CC2O[C@](O)(CC(O)C(O)CCC(O)CC(O)CC(O)CC(=O)O[C@H]1C)CC(O)C2C(=O)O ; strain: MTCC 854 ; measure: MIC ; value: 150 µg/mL
CCC(C)CC(C)CCCCCCCCC(=O)N[C@H]1C[C@@H](O)[C@@H](O)NC(=O)[C@@H]2[C@@H](O)CCN2C(=O)[C@H]([C@H](O)CC(N)=O)NC(=O)[C@H]([C@H](O)[C@@H](O)c2ccc(O)cc2)NC(=O)[C@@H]2C[C@@H](O)CN2C(=O)[C@H]([C@@H](C)O)NC1=O ; measure: MIC ; value: <0.02 µg/mL
CC1=C(N2CCC3CNCC32)C(F)=CN2C(=O)C(C(=O)O)=CC(C3CC3)C12 ; strain: CCH442 ; measure: MIC ; value: >100 µg/mL
COc1cc(C[C@H](C)[C@H](C)Cc2ccc(O)c(O)c2)ccc1O ; strain: CCC 130-2000 ; measure: MIC100 ; read by: broth dilution ; value: 125 µg/mL
O=C(/C=C/c1ccccc1)c1ccccc1 ; strain: ATCC 10231 ; measure: MIC ; value: >50 µg/mL
Clc1ccc(CCC2CCCc3cnccc32)c(Cl)c1 ; strain: C316 ; measure: MIC ; value: >125 µg/mL
O=C(/C=C/c1ccc2ccccc2c1)c1ccccc1 ; strain: ATCC 10231 ; measure: MIC ; value: >50 µg/mL
CCN1C2=NC[C@H](Cc3ccccc3)N2C[C@H]1CC1CCCCC1 ; strain: ATCC 10231 ; measure: EC50 ; value: >64 µg/mL
CC[C@H](N)[C@@H]1CCN(c2c(F)cn3c(=O)c(C(=O)O)cc(C4CC4)c3c2C)C1.Cl ; strain: CCH442 ; measure: MIC ; value: 12.5 µg/mL
CN(C/C=C/C#CC(C)(C)C)Cc1cccc2ccccc12 ; strain: CI_5 ; measure: MIC50 ; value: 4 µg/mL
CN1CCC2=C(CCCC2CCc2ccccc2)C1 ; strain: C316 ; measure: MIC ; value: 31 µg/mL
Cc1c(N2CC3CCCN(C)C3C2)c(F)cn2c(=O)c(C(=O)O)cc(C3CC3)c12.Cl ; strain: CCH442 ; measure: MIC ; value: 0.1 µg/mL
CCN1C2=NC[C@H](Cc3ccccc3)N2C[C@H]1C1CCCCC1 ; strain: ATCC 10231 ; measure: EC50 ; value: >64 µg/mL
Cc1c(N2CC3CCC(C)(NC(=O)[C@H](C)N)C3C2)c(F)cn2c(=O)c(C(=O)O)cc(C3CC3)c12.Cl ; strain: CCH442 ; measure: MIC ; value: >100 µg/mL
C1CCC(C[C@@H]2CN=C3N2C[C@@H](C2CCCCC2)N3CCC23CC4CC(CC(C4)C2)C3)CC1 ; strain: ATCC 10231 ; measure: MIC ; value: 10–16 µg/mL
Cc1c(N2CC[C@H](C3CC3N)C2)c(F)cn2c(=O)c(C(=O)O)cc(C3CC3)c12 ; strain: CCH442 ; measure: MIC ; value: >100 µg/mL
C1CCC(C[C@@H]2CN3C(=NC[C@H]3C3CCCCC3)N2CCC23CC4CC(CC(C4)C2)C3)CC1 ; strain: ATCC 10231 ; measure: MIC ; value: 32–64 µg/mL
c1ccc(CC2CCCc3cnccc32)cc1 ; strain: 1208E ; measure: MIC ; value: 31 µg/mL
Cc1c(N2CCC[C@@H]2CO)c(F)cn2c(=O)c(C(=O)O)cc(C3CC3)c12 ; strain: CCH442 ; measure: MIC ; value: >100 µg/mL
C[C@@H](c1nc(-c2ccc(C#N)cc2)cs1)[C@](O)(Cn1cnnc1)c1ccc(F)cc1F ; strain: Darlington ; measure: MIC ; value: 8 µg/mL
CC(C)(C)C1CCC(CN2C3=NC[C@@H](C4CCCCC4)N3C[C@H]2C2CCCCC2)CC1 ; strain: ATCC 10231 ; measure: EC50 ; value: 34.2 µg/mL
O=C(NCCc1ccc2c(c1)OCO2)c1ccc(F)cc1 ; strain: Clinical isolate ; measure: MIC80 ; read by: broth dilution ; changes: Fluconazole-resistant ; value: >64 µg/mL
C[C@H]1COC2=C(N3CCNCC3)C(F)=CN3C(=O)C(C(=O)O)=CC1C23 ; strain: CCH442 ; measure: MIC ; value: >100 µg/mL
CC(C)(C)C1CCC(CN2C3=NC[C@H](C4CCCCC4)N3C[C@H]2CC2CCCCC2)CC1 ; strain: ATCC 10231 ; measure: EC50 ; value: 4.6 µg/mL
Cc1c(N2CC3CCCN(C)C3C2)c(F)cn2c(=O)c(C(=O)O)cc(C3CC3)c12.Cl ; strain: CCH442 ; measure: MIC ; value: >100 µg/mL
C[C@@H](c1ncncc1F)[C@](O)(Cn1cncn1)c1ccc(F)cc1F ; strain: 4054 strains (fluconazole-susceptible) ; measure: MIC90 ; value: 0.015 µg/mL
Cc1c(N2CCC(N3CCCCC3)CC2)c(F)cn2c(=O)c(C(=O)O)cc(C3CC3)c12 ; strain: CCH442 ; measure: MIC ; value: >100 µg/mL
CN1CCC2=C(CCCC2CCc2ccc(Cl)cc2)C1 ; strain: 2402E ; measure: MIC ; value: 8 µg/mL
CC[C@@H](NC)[C@@H]1CCN(c2c(F)cn3c(=O)c(C(=O)O)cc(C4CC4)c3c2C)C1.Cl ; strain: CCH442 ; measure: MIC ; value: >100 µg/mL
CC1=C(N2CC[C@@H]([C@H](N)C(F)(F)F)C2)C(F)=CN2C(=O)C(C(=O)O)=CC(C3CC3)C12 ; strain: CCH442 ; measure: MIC ; value: >100 µg/mL
Cc1c(N2CC3CCCNC3C2)c(F)cn2c(=O)c(C(=O)O)cc(C3CC3)c12 ; strain: CCH442 ; measure: MIC ; value: >100 µg/mL
COc1ccc2c(c1OC)C[N+]1(Cc3cccc(F)c3)CCc3cc4c(cc3C1C2)OCO4.[Br-] ; strain: Clinical isolate ; measure: MIC80 ; read by: broth dilution ; changes: Fluconazole-resistant ; value: >64 µg/mL
CCN1C2=NC[C@H](C(C)(C)C)N2C[C@@H]1Cc1ccccc1 ; strain: ATCC 10231 ; measure: EC50 ; value: >250 µg/mL
COc1ccc2c(Cc3ccccc3[N+](=O)[O-])c3[n+](cc2c1OC)CCc1cc2c(cc1-3)OCO2.[Br-] ; strain: Clinical isolate ; measure: MIC80 ; read by: broth dilution ; changes: Fluconazole-resistant ; value: 32 µg/mL
O=C(/C=C/c1ccc([N+](=O)[O-])cc1)c1ccccc1 ; strain: ATCC 10231 ; measure: MIC ; value: >50 µg/mL
C=CCc1ccc(O)c(-c2ccc(O)c(CC=C)c2)c1 ; strain: TW 00313 ; measure: MIC ; read by: broth dilution ; value: 64 µg/mL
NC1CCN(c2c(F)cn3c(=O)c(C(=O)O)cc(C4CC4)c3c2Cl)C1.O=C(O)C(F)(F)F ; strain: CCH442 ; measure: MIC ; value: >100 µg/mL
O=C(Cc1ccccc1)NCCc1ccc2c(c1)OCO2 ; strain: Clinical isolate ; measure: MIC80 ; read by: broth dilution ; changes: Fluconazole-resistant ; value: >64 µg/mL
Cc1c(N2CCCC(n3cccc3)C2)c(F)cn2c(=O)c(C(=O)O)cc(C3CC3)c12 ; strain: CCH442 ; measure: MIC ; value: >100 µg/mL
C[C@@H]1C[C@@H]([C@H](O)CC2CC(=O)NC(=O)C2)C(=O)[C@@H](C)C1 ; strain: Isolate 4 ; measure: MIC ; value: 0.53 µM
C[C@@H](c1nc(-c2ccc(C#N)cc2)cs1)[C@](O)(Cn1cncn1)c1ccc(F)cc1F ; strain: 4054 strains (fluconazole-susceptible) ; measure: MIC50 ; value: 0.007 µg/mL

3 of the rows above, restated:

compound | strain | measure | read by | changes | value
CCN1C2=NC[C@H](C(C)(C)C)N2C[C@@H]1Cc1ccccc1 | ATCC 10231 | EC50 | - | - | >250 µg/mL
CN(C/C=C/C#CC(C)(C)C)Cc1cccc2ccccc12 | CI_5 | MIC50 | - | - | 4 µg/mL
C1CCC(C[C@@H]2CN=C3N2C[C@@H](C2CCCCC2)N3CCC23CC4CC(CC(C4)C2)C3)CC1 | ATCC 10231 | MIC | - | - | 10–16 µg/mL

MIC50, MIC90 and the like: level of inhibition, or share of isolates inhibited. Two numbers with a dash give a range or band. Blank or dashed fields: not listed here. Rows are shuffled and stem from different studies.